Compound potency records, mixed from different reports. Data source: NIAID ChemDB in PubChem.

Shared fields: whole-cell or culture tests; species: HIV-1; method: MTT; endpoint: EC50

ECn is the concentration giving n% inhibition of infection, replication or growth.

structure,cell line,strain or isolate,mutations,result
Cc1cc(C#N)cc(C)c1Oc1nc(Nc2ccc(C#N)cc2)ncc1SCC(N)=O,MT-4,,K103N,0.0218 µM
Cc1nnc(C(=O)NC(C)(C)c2nc(C(=O)NCc3ccc(F)cc3)c(O)c(=O)n2C)o1,MT-4,IIIB,,0.00405 µM
CCc1c(Cc2ccc(C)cc2)n(COCC2CC2)c(=O)[nH]c1=O,MT-4,N119,Y181C,>100 µM
C#CCNC(=O)CSc1cnc(Nc2ccc(C#N)cc2)nc1Oc1c(C)cc(C#N)cc1C,MT-4,,RES056,0.2096 µM
COc1cc(C(C#N)c2c(F)cccc2F)nc(N(C)C)n1,MT-4,IIIB,K103N + Y181C,>40 µM
CCc1c(Cc2cc(C)cc(C)c2)n(COCc2ccc(C#CCO)cc2)c(=O)[nH]c1=O,MT-4,IIIB,K103N + Y181C,0.6 µM
N#Cc1ccc(Nc2nnc(Cc3c(F)cccc3F)o2)cc1,MT-2,IIIB,,0.36 µM
CCc1c(Cc2ccc(C)cc2)n(COCCc2ccccc2)c(=O)[nH]c1=O,MT-4,A17,K103N/Y181C,>60 µM
CCc1c(Cc2cc(C)cc(C)c2)n(COCc2cn(Cc3c(F)cccc3F)nn2)c(=O)[nH]c1=O,MT-4,IIIB,Y181C,3.2 µM
COc1cccc(F)c1C(=O)c1nc(N(C)C)nc(OC)c1C,MT-4,IIIB,K103N + Y181C,>7.8 µM
CC(c1nnc(Nc2ccc(C#N)cc2)o1)c1c(F)cccc1F,MT-2,IIIB,,0.2 µM
CCc1c(Cc2ccccc2)n(COCCCc2ccccc2)c(=O)[nH]c1=O,MT-4,N119,Y181C,>23 µM
Cc1cn([C@H]2C[C@H](N=[N+]=[N-])[C@@H](CO)O2)c(=O)[nH]c1=O,MT-4,,EFV-resistant (K103R V179D P225H),0.02 µM
Cc1cc(C#N)cc(C)c1Oc1nc(Nc2ccc(C#N)cc2)ncc1SCC(=O)NCCN1CCOCC1,MT-4,,RES056,0.3164 µM
COc1nc(N(C)C)nc(C(C#N)c2c(F)cccc2F)c1C,MT-4,IIIB,Y181C,>10 µM
C=CCNC(=O)CSc1cnc(Nc2ccc(C#N)cc2)nc1Oc1c(C)cc(C#N)cc1C,MT-4,,Y181C,0.0227 µM
Cc1nc2c(c(C)c(C)n2CCC#N)c(-c2ccc(Cl)cc2)c1[C@@H](OC(C)(C)C)C(=O)O,MT-4,IIIB,,0.286 µM
Cc1cc(C#N)cc(C)c1Oc1nc(Nc2ccc(C#N)cc2)ncc1SCC(=O)NC1CC1,MT-4,,L100I,0.0121 µM
CCc1c(Cc2cc(C)cc(C)c2)n(COCC#Cc2cccc(CO)c2)c(=O)[nH]c1=O,MT-4,IIIB,EFV-resistant (K103R V179D P225H),7 µM
CC(=O)COc1cc2c(c(O)c1Br)C(=O)C1C(O)=CC(C)=CC1C2=O,MT-2,IIIB,,>30 µM
Cc1ccnc2c1NC(=O)c1cccnc1N2C1CC1,MT-4,,A17 (K103N Y181C),80 µM
CCc1c(Cc2cc(C)cc(C)c2)n(COCCO)c(=O)[nH]c1=O,MT-4,,,0.02 µM
C#CCn1c(C)c(C)c2c(-c3ccc(Cl)cc3)c(C(OC(C)(C)C)C(=O)O)c(C)nc21,MT-4,IIIB,,0.0296 µM
Clc1ccc(Nc2nnc(Nc3c(Cl)cccc3Cl)o2)cc1Cl,MT-2,IIIB,,22 µM
C=CCOCn1c(Cc2ccccc2)c(CO)c(=O)[nH]c1=O,MT-4,IIIB,K103N + Y181C,>100 µM
COc1ccc(S(=O)(=O)N(CC(C)C)C[C@@H](O)[C@H](Cc2ccccc2)NC(=O)O[C@H]2CCO[C@H]3COC[C@H]32)cc1,MT-2,LAI,,1 µM
COc1nc(N(C)C)nc(C(=O)c2c(F)cccc2F)c1C,MT-4,IIIB,Y181C,>20 µM
CCc1c(Cc2cc(C)cc(C)c2)n(COCC#Cc2ccccc2)c(=O)[nH]c1=O,MT-4,IIIB,K103N + Y181C,6 µM
CC1=CC2C(=O)c3cc(OCC(=O)c4ccccc4)c(Br)c(O)c3C(=O)C2C(O)=C1,MT-2,IIIB,,>100 µM
Cc1cc(C#N)cc(C)c1Oc1nc(Nc2ccc(C#N)cc2)ncc1SCC(=O)NCc1ccc(O)cc1,MT-4,,L100I,0.0402 µM
CCc1ccc(Nc2ncc(Cc3c(F)cccc3F)o2)cc1,MT-2,IIIB,,1.4 µM
Cc1cc(C#N)cc(C)c1Oc1nc(Nc2ccc(C#N)cc2)ncc1SCC(=O)NC1CCN(C(=O)OC(C)(C)C)CC1,MT-4,,Y188L,0.1715 µM
CCc1c(Cc2ccc(OC)c(OC)c2)n(COCC2CC2)c(=O)[nH]c1=O,MT-4,EFVR,K103R/V179D/P225H,>100 µM
CCc1c(Cc2ccccc2C)n(COCC#Cc2ccccc2)c(=O)[nH]c1=O,MT-4,IIIB,WT,0.4 µM
Cc1nc2c(c(C)c(C)n2CCN2CCCC2)c(-c2ccc(Cl)cc2)c1[C@H](OC(C)(C)C)C(=O)O,MT-4,IIIB,,0.124 µM
Cc1cc(/C=C/C#N)cc(C)c1Oc1ccnc(Nc2ccc(CN3CCN(S(=O)(=O)N(C)C)CC3)cc2)n1,MT-4,,E138K,0.034 µM
Cc1cc(C#N)cc(C)c1Oc1nc(Nc2ccc(C#N)cc2)ncc1SCC(=O)NCC1CCCO1,MT-4,IIIB,,0.0076 µM
CCc1c(Cc2cc(C)cc(C)c2)n(COCCF)c(=O)[nH]c1=O,MT-4,,,0.006 µM
N#Cc1nc(Cc2cccc3ccccc23)oc1NC[C@H]1CCCO1,MT-2,IIIB,,6.2 µM
Cc1c(C(Br)c2c(F)cccc2F)nc(N(C)C)[nH]c1=O,MT-4,IIIB,,0.4 µM
N#Cc1cccc(Nc2nnc(Cc3c(Cl)cccc3Cl)o2)c1,MT-2,IIIB,,4.2 µM
CCc1c(Cc2ccc(C)cc2)n(COCc2ccccc2)c(=O)[nH]c1=O,MT-4,EFVR,K103R/V179D/P225H,>44 µM
Cc1cc(C#N)cc(C)c1Nc1nnc(Nc2ccc(Cl)cc2)o1,MT-2,IIIB,,34 µM
Cc1nc2c(c(C)c(C)n2CCCC#N)c(-c2ccc(Cl)cc2)c1[C@H](OC(C)(C)C)C(=O)O,MT-4,IIIB,,0.0062 µM
CCc1c(Cc2ccccc2)n(COCCc2ccccc2)c(=O)[nH]c1=O,MT-4,IIIB,,0.4 µM
COCCNC(=O)CSc1cnc(Nc2ccc(C#N)cc2)nc1Oc1c(C)cc(C#N)cc1C,MT-4,,Y181C,0.0196 µM
CCn1c(C)c(C)c2c(-c3ccc(C)cc3)c(C(OC(C)(C)C)C(=O)O)c(C)nc21,MT-4,IIIB,,0.0269 µM
CCc1c(Cc2ccccc2C)n(COCC#Cc2ccc(NC(=O)C(F)(F)F)cc2)c(=O)[nH]c1=O,MT-4,IIIB,EFV-resistant (K103R V179D P225H),>45 µM
CCOCn1c(Cc2ccc(OC)c(OC)c2)c(CC)c(=O)[nH]c1=O,MT-4,IIIB,,59 µM
CCc1c(Cc2cc(C)cc(C)c2)n(COCC#Cc2cc(C(F)(F)F)cc(C(F)(F)F)c2)c(=O)[nH]c1=O,MT-4,IIIB,EFV-resistant (K103R V179D P225H),>70 µM
C=CCOCn1c(Cc2ccccc2)c(CF)c(=O)[nH]c1=O,MT-4,IIIB,EFV:K103R+V179D+P225H,>100 µM

Repeating the final 5 entries:

structure	cell line	strain or isolate	mutations	result
CCn1c(C)c(C)c2c(-c3ccc(C)cc3)c(C(OC(C)(C)C)C(=O)O)c(C)nc21	MT-4	IIIB		0.0269 µM
CCc1c(Cc2ccccc2C)n(COCC#Cc2ccc(NC(=O)C(F)(F)F)cc2)c(=O)[nH]c1=O	MT-4	IIIB	EFV-resistant (K103R V179D P225H)	>45 µM
CCOCn1c(Cc2ccc(OC)c(OC)c2)c(CC)c(=O)[nH]c1=O	MT-4	IIIB		59 µM
CCc1c(Cc2cc(C)cc(C)c2)n(COCC#Cc2cc(C(F)(F)F)cc(C(F)(F)F)c2)c(=O)[nH]c1=O	MT-4	IIIB	EFV-resistant (K103R V179D P225H)	>70 µM
C=CCOCn1c(Cc2ccccc2)c(CF)c(=O)[nH]c1=O	MT-4	IIIB	EFV:K103R+V179D+P225H	>100 µM

Lines come from different laboratories, so protocols vary. Blank or dashed fields: not listed here.